Reference: EP2797914B1, “NIFURATEL SULFOXIDE FOR USE IN THE TREATMENT OF BACTERIAL INFECTIONS” (Polichem SA, priority 2011, dated 2013)

Key:
[1] = tested on: Atopobium vaginae; assay: MIC by agar dilution method (CLSI M07-A8 / M11-A7); efficiency coefficient derived; type: cell-based; details: nifuratel sulfoxide vs. nifuratel
Procedure: (§1) The in vitro activity of nifuratel sulfoxide racemate, R-nifuratel sulfoxide and S-nifuratel sulfoxide was tested on a panel of bacteria, which included both Gram positive and Gram negative bacteria.
(§2) The minimum inhibitory concentrations (MICs) of the compounds were determined by the broth microdilution method or by the agar dilution method, according to the National Committee for Clinical Laboratory Standards (CLSI) reference methods M07-A8 and M11-A7.
(§3) The efficiency coefficient (EC) of nifuratel sulfoxide vs. nifuratel was calculated for each tested strain as follows: EC = relative oral bioavailability*[…] [formula]
(§4) Where: • nifS = nifuratel sulfoxide • nif = nifuratel • EC = 1 is indicative of equivalent efficiency between nifuratel sulfoxide and nifuratel. • EC < 1 is indicative of a lower efficiency of nifuratel sulfoxide vs. nifuratel • EC > 1 is indicative of a higher efficiency of nifS vs. nif

[2] = tested on: Gardnerella vaginalis; assay: as above; type: cell-based; details: nifuratel sulfoxide vs. nifuratel
Procedure: as §1, §2, §3, §4

C[S+]([O-])CC1CN(/N=C/c2ccc([N+](=O)[O-])o2)C(=O)O1 (racemic) [Nifuratel sulfoxide, nifuratel sulfoxide]
EC (efficiency coefficient) ([1]; strain CCUG 38953): 1.9
EC (efficiency coefficient) ([1]; strain CCUG 39382): 7.5
EC (efficiency coefficient) ([1]; strain CCUG 42099): 7.5
EC (efficiency coefficient) ([1]; strain CCUG 43049): 1.9
EC (efficiency coefficient) ([1]; strain CCUG 44061): 7.5
EC (efficiency coefficient) ([1]; strain CCUG 44156): 15
EC (efficiency coefficient) ([1]; strain CCUG 48515): 15
EC (efficiency coefficient) ([1]; strain CCUG 55226): 7.5
EC (efficiency coefficient) ([1]; strain CCUG 55227): 1.9
EC (efficiency coefficient) ([2]; strain ATCC 14018): 7.5
EC (efficiency coefficient) ([2]; strain C2): 15
EC (efficiency coefficient) ([2]; strain D2): 3.8
EC (efficiency coefficient) ([2]; strain E2): 1.9
EC (efficiency coefficient) ([2]; strain G2): 1.9
EC (efficiency coefficient) ([2]; strain H2): 3.8
EC (efficiency coefficient) ([2]; strain J2): 1.9
EC (efficiency coefficient) ([2]; strain K2): 3.8
